Results of unrelated studies side by side (data: NIAID ChemDB).

Shared fields: tests in culture; organism: Candida albicans

An empty or dashed field is not shown.

SMILES | strain or isolate | endpoint | changes | method | result
Cn1cc(/C=C/[N+](=O)[O-])c2ccccc21 | - | MIC | - | - | 400 µg/mL
Clc1ccccc1C(c1ccccc1)(c1ccccc1)n1ccnc1 | IEM 49/64 | MIC | - | - | 0.5 µg/mL
Clc1ccccc1C(c1ccccc1)(c1ccccc1)n1ccnc1 | - | MIC50 | - | - | 3.13 µg/mL
COc1cc(O)c2c(=O)oc3c(c2c1)C(C)(O)CC3=O | SC5314 | EC50 | - | resazurin | 198 µM
COc1cc(O)c(C(C)=O)c(OC)c1 | FCF-243 | MIC | - | - | >500 µg/mL
CC1=C(N2C[C@H]3CCCN[C@H]3C2)C(F)=CN2C(=O)C(C(=O)O)=CC(C3CC3)C12 | CCH442 | MIC | - | - | >100 µg/mL
NC(N)=Nc1ccc(Sc2ccccc2)cc1 | ATCC 44859 | MIC80 | - | - | 500 µM
Oc1cccc2oc(-c3ccccc3)cc(=Nc3ccccc3N=c3cc(-c4ccccc4)oc4cccc(O)c34)c12 | - | MIC | - | agar diffusion | 50 µg/mL
COc1ccccc1N1CCN(CCCCN2C(=O)CCC(c3ccccc3)C2=O)CC1 | DSM 1386 | MIC | - | - | >100 µM
CCSc1ccc(N=C(N)N)cc1 | ATCC 44859 | MIC80 | - | - | >1000 µM
C/C(=C\c1c(C)[nH]c2ccccc12)[N+](=O)[O-] | - | MFC | - | - | 50 µg/mL
C1CCC(C[C@H]2CN=C3N2C[C@H](C2CCCCC2)N3CCC23CC4CC(CC(C4)C2)C3)CC1 | ATCC 10231 | MIC | - | - | 10–16 µg/mL
Cc1c(N2CCCC(C)(N)C2)c(F)cn2c(=O)c(C(=O)O)cc(C3CC3)c12.Cl | CCH442 | MIC | - | - | >100 µg/mL
C1CCC([C@H]2CN=C3N2C[C@@H](C2CCCCC2)N3CCC23CC4CC(CC(C4)C2)C3)CC1 | ATCC 10231 | EC50 | - | - | 9.9 µg/mL
NC1CCN(c2c(F)cn3c(=O)c(C(=O)O)cc(C4CC4)c3c2Cl)C1.O=C(O)C(F)(F)F | CCH442 | MIC | - | - | >100 µg/mL
CCCCCCCCCCCCCCSc1ccc(N=C(N)N)cc1 | ATCC 44859 | MIC80 | - | - | 125 µM
C1CCC([C@H]2CN3C(=NC[C@H]3C3CCCCC3)N2CCC23CC4CC(CC(C4)C2)C3)CC1 | ATCC 10231 | MIC | - | - | 10–16 µg/mL
Cc1sc2c(C)c3[nH]c4cccnc4c3cc2c1C | CECT 1394 | MIC | - | - | 25 µg/mL
c1ccc(C[C@H]2CN=C3N(CCC45CC6CC(CC(C6)C4)C5)[C@@H](Cc4ccccc4)CN32)cc1 | ATCC 10231 | EC50 | - | - | 24.9 µg/mL
O=C1CCC(c2ccccc2)C(=O)N1CCCN1CCN(c2ccccn2)CC1 | DSM 1386 | MIC | - | - | >100 µM
COc1ccc2cc3[n+](cc2c1OC)CCc1cc2c(cc1-3)OCO2.[Cl-] | Clinical isolate | MIC80 | Fluconazole-resistant | broth dilution | 32 µg/mL
CC(C)(C)C1CCC(CN2C3=NC[C@H](C4CCCCC4)N3C[C@H]2C2CCCCC2)CC1 | ATCC 10231 | MIC | - | - | >64 µg/mL
CN(C/C=C/C#CC(C)(C)C)Cc1cccc2ccccc12 | IEM 49/64 | MIC | - | - | 5 µg/mL
O=C1CCC(c2ccccc2)C(=O)N1CCCCN1CCN(c2ccc(F)cc2)CC1 | DSM 1386 | MIC | - | - | >100 µM
N[C@@H]1CN(c2cc3c(C4CC4)cc(C(=O)O)c(=O)n3cc2F)CC12CC2 | CCH442 | MIC | - | - | >100 µg/mL
O=[N+]([O-])/C=C/c1c[nH]c2ccccc12 | - | MIC | - | - | >1600 µg/mL
CC1=C(N2CC3CNCC3C2)C(F)=CN2C(=O)C(C(=O)O)=CC(C3CC3)C12 | CCH442 | MIC | - | - | >100 µg/mL
CCN1C2=NC[C@H](Cc3ccccc3)N2C[C@H]1C1CCCCC1 | ATCC 10231 | MIC | - | - | >64 µg/mL
COc1c(N2CCC(N)C2)c(F)cn2c(=O)c(C(=O)O)cc(C3CC3)c12 | CCH442 | MIC | - | - | >100 µg/mL
C[C@@H]1[C@H](O)[C@@H](C)/C=C/C=C/CC/C=C/C=C/C=C/C=C/C(O[C@H]2O[C@H](C)[C@@H](O)[C@H](N)[C@@H]2O)CC2O[C@](O)(CC(O)C(O)CCC(O)CC(O)CC(O)CC(=O)O[C@H]1C)CC(O)C2C(=O)O | ATCC 10231 | MIC | - | - | 3.125 µg/mL
C/C(=C\c1c[nH]c2ccccc12)[N+](=O)[O-] | - | MIC | - | - | 25 µg/mL
CCC(C)n1ncn(-c2ccc(N3CCN(c4ccc(OC[C@H]5CO[C@](Cn6cncn6)(c6ccc(Cl)cc6Cl)O5)cc4)CC3)cc2)c1=O | IEM 49/64 | MIC | - | - | 10 µg/mL
CCN1C2=NCC(C)(C)N2C[C@@H]1Cc1ccccc1 | ATCC 10231 | MIC | - | - | >250 µg/mL
COc1cc(O)cc(-c2cc(O)c(O)cc2C)c1 | SC5314 | EC50 | - | resazurin | >250 µM
Cc1sc2c(C)c(Nc3cccnc3Cl)ccc2c1C | CECT 1394 | MIC | - | - | 25 µg/mL
CNCC1CN(c2c(F)cn3c(=O)c(C(=O)O)cc(C4CC4)c3c2C)CCO1.Cl | CCH442 | MIC | - | - | >100 µg/mL
CCCCCCCCCCSc1ccc(N=C(N)N)cc1 | ATCC 44859 | MIC80 | - | - | 15.83 µM
OC(Cn1cncn1)(Cn1cncn1)c1ccc(F)cc1F | TW 07239 | MIC | - | broth dilution | 256 µg/mL
CCCCCCCCCCCCCSc1ccc(N=C(N)N)cc1 | ATCC 44859 | MIC80 | - | - | 31.25 µM
Cc1c(N2C[C@@H]3CCC[C@H](N)[C@H]3C2)c(F)cn2c(=O)c(C(=O)O)cc(C3CC3)c12.Cl | CCH442 | MIC | - | - | 0.1 µg/mL
CCN1C2=NC[C@@H](C3CCCCC3)N2C[C@@H]1Cc1ccccc1 | ATCC 10231 | EC50 | - | - | >64 µg/mL
Cc1c(N2CC[C@H](n3cccc3)C2)c(F)cn2c(=O)c(C(=O)O)cc(C3CC3)c12 | CCH442 | MIC | - | - | >100 µg/mL
Cc1cc(O)cc2c(=O)oc(C[C@@H](C)O)cc12 | SC5314 | EC50 | - | resazurin | 193 µM
CCCCCCCCCCC(=O)Oc1c(OC)ccc2cc3[n+](cc12)CCc1cc2c(cc1-3)OCO2 | ATCC 10231 | MIC | - | - | 500 µg/mL
O=C1CCC(c2ccccc2)C(=O)N1CCCCN1CCN(c2ccccn2)CC1 | DSM 1386 | MIC | - | - | >100 µM
NC(N)=Nc1ccc(SC2CCCCC2)cc1 | ATCC 44859 | MIC80 | - | - | 500 µM
COc1cc(O)c2c(c1)C1=C[C@@H](O)[C@@H](O)C[C@]1(C)OC2=O | SC5314 | EC50 | - | resazurin | >250 µM
CC(C)=CCC/C(C)=C/CC/C(C)=C/CC[C@@]1(C)[C@H](CCCO)/C(=C(/C)C=O)CC[C@]1(C)O | 1066 | MIC | - | - | >50 µg/mL
CC(Cc1ccc(C(C)(C)C)cc1)CN1CC(C)OC(C)C1 | SC5314 | MIC | - | - | >3.12 µg/mL

A number after MIC or MFC names an inhibition level or a share of isolates. a–b is a range or a potency band. Conditions beyond the fields shown may differ between rows. ECn is the concentration giving n% inhibition of infection, replication or growth.